We go through 1 protein from publication PMC11162425, “The Legionella collagen-like protein employs a distinct binding mechanism for the recognition of host glycosaminoglycans” (Nature Communications, 2024).

The data set deals with the molecule itself. As to the kind of experiment: NMR (1H-15N HSQC, NOESY and ROESY).

The term stoichiometry N denotes a count of units in the complex or per binding partner.

B1: Lcl-CLR peptide (collagen-like repeat consensus peptide, 19 residues) (peptide)
peptide: EAGPQGLPGPKGDRGEAGP
With B1, the “stoichiometry N” value was 3.
